Experiments:
Escherichia coli [1] = details: C600 X1B1-T
Escherichia coli [2] = details: C600 XT11-T
Escherichia coli [3] = details: C600 W281-T
Escherichia coli [4] = details: C600 G262-T
Escherichia coli [5] = details: C600 G062-T

Measured: MIC

GENTAMICIN
0.5 µg/mL: all assays above

— ChEMBL document CHEMBL1687783, “Prevalence and dissemination of oqxAB in Escherichia coli isolates from animals, farmworkers, and the environment” (2010)
